## Single amino acid changes in Zika NS2B-NS3 and viral growth

The measurements come from Ni et al. 2025 (doi:10.1038/s41467-025-63602-z).

Protein: NS2B and the protease part of NS3 of Zika virus strain MR766. Positions count along the chain below; NS2B spans 2-131 and NS3 starts at 132.
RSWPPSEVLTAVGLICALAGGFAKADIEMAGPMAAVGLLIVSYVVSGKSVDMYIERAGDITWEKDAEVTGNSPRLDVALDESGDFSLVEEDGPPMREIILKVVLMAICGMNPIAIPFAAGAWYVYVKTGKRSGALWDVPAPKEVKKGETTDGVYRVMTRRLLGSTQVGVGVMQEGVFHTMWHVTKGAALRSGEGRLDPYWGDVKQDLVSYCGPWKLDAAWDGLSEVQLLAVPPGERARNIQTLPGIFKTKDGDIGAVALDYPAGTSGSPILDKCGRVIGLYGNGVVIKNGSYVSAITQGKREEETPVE

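Pools of virus carrying all single amino acid changes were selected for growth in Huh-7.5 cells. Deep sequencing gave the change in frequency of each mutant relative to wild type, averaged over three replicate libraries (two for positions 207-308). The aim was to find sites where inhibitor-binding pockets cannot change.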

Values are log2 effects on growth: 0 is wild type, lower means poorer growth.
Each entry names the wild-type residue, its position and the residue put in its place.
Position 1 still belongs to NS2A. In the paper, -1 or higher counts as tolerated.

substitution | log2 effect
W3H | -5.23
W3S | -7.88
S6I | -6.82
S6M | -4.04
S6P | -1.92
T10E | -3.16
L14G | -5.10
A17R | -6.93
I40* | -7.45
S42* | -7.55
Y43C | -5.70
V44T | -3.30
D59W | -5.58
W62F | -5.97
A66K | -6.02
A66L | -7.85
E67T | -3.13
V68K | -6.11
P73R | -7.60
R74D | -5.44
S86W | -2.46
E90P | -0.10
D91N | -1.10
M95F | -0.74
E97M | -2.63
E97Q | -1.32
C108G | -3.65
C108W | -6.58
M110S | -1.53
A114E | -5.61
P116V | -6.37
W122L | -5.19
V124Y | -1.38
Y125T | -6.47
S132K | -6.18
G133F | -5.28
V138A | -4.92
E143M | -0.78
E143V | 0.61
K145G | -3.28
G147V | -2.51
T158N | -0.55
G163H | -3.12
G170D | -5.24
T179* | -6.83
H182S | -5.68
L189M | -3.00
S191N | -1.37
Q205* | -7.15
D206I | -5.77
S209Y | -5.80
W220F | -6.23
G222F | 0.55
V226D | -5.62
L229G | -3.58
L229K | -6.39
L229R | -3.54
G234E | -5.42
G234R | 0.07
K250I | -2.99
D260* | -6.39
S266D | -5.34
S266R | -6.25
P269R | -5.94
I270R | -5.66
L271G | -5.38
D272C | -2.82
D272K | -3.02
R276Q | -3.58
I278N | -5.20
G279E | -4.20
G284W | -6.12
I287E | -3.03
G290L | -6.92
A295* | -6.52
R301* | -7.19
P306Y | -1.20

A selection of 7 entries from above:

For D260* the result was -6.39.
For A114E the result was -5.61.
For V226D the result was -5.62.
For V68K the result was -6.11.
For G170D the result was -5.24.
For A66L the result was -7.85.
For T158N the result was -0.55.

The region was split into three libraries (1-103, 104-206, 207-308).
Values above 0 are not proof of better growth: six high scorers were tested one by one, five grew less well than wild type and one about as well.
An asterisk is a stop codon; stop codons read about -7, near the floor of the assay.